# Reference: patent US20250026813A1, “Antibodies against sars-cov-2 and uses thereof” (published 2025)
# Several values for one entry are separate records, joined by “and”; a condition that tells them apart may be missing. Equal entries are not always repeated.
# B1: IMPI-032 (antibody, V domains shown)
# VH: QVQLQESGPGLVKPSGTLSLTCAVSGGSISSNKWWSWVRQPPGKGLEWIGEIDHSGSTMYNPSLKSRVTISVDKSKNQFSLKLNSVTAADTAVYYCTGEGYNWNYWGQGTRVTVSS
# VL: DVVMTQSPLSLPVTLGQTASISCRSSQSLLYTDGNTYLSWFQQRPGQSPRRLIYKVSKWESGVPDRFSGSGSGTDFTLKISRVEAEDVGIYYCMQGTHWPLTFGGGTKVEIK
# B2: IMPI-063 (antibody, V domains shown)
# VH: EVQLVESGGGVVRPGGSLRLSCAASGFTFDDYGMSWVRQAPGKGLEWVSGIYWNGGSTGYADSVKGRFTISRDNAKNSLYLQMNSLRAEDMALYYCARGVGATDYWGQGTLVTVSS
# VL: EIVLTQSPGTLSLSSGERATLACRASESVRGSFLAWYQQKPGQAPRLLIYGASRRATGIPDRFSGSGSGTDFTLTISRLEPEDFAVYYCQQYGNSPMCSFGQGTKLEIK
# B3: YANG-2301 (antibody, V domains shown)
# VH: QVHLIQSGAEVKKPGASVKVSCKVSGYTLIEVSVHWVRQAPGKGLEWMGGFDPEAAETIYAQKFQGRVTMTEDTSTDTAYMDLSSLKSEDSAVYYCAIGPAVTGRNSGEYYYYYGMDVWGQGTTVTVAS
# VL: EIVMTQSPATLSVSPGERATLSCRASQSVNSNLAWYQQKPGQAPRLLIYAVSTRATGLPARFSGSGSGTEFTLTISSLQSEDFVVYYCHQYNNWPLTFGGGTKVEIK
# B4: IMPI-017 (antibody, V domains shown)
# VH: EVQLVESGGGLIQPGGSLRLSCAAAGLTVSSNYMNWVRQVPGKGLEWVSVIYSGGSTYYADSVKGRFTISRDNSKNTLYLQMNSLRAEDTAVYYCARDLGTLGMDVWGQGTTVTVSS
# VL: DIQLTQSPSFLSASVGDRVTITCWASQGISTYLAWYQQKPGKAPKLLIYAASTLQSGVPSRFSGSGSGTEFTLTISSLQPEDFATYYCQQLNSYLPTFGQGTKVEIK
# B5: IMPI-063 (antibody, V domains shown)
# VH: EVQLVESGGGVVRPGGSLRLSCAASGFTFDDYGMSWVRQAPGKGLEWVSGIYWNGGSTGYADSVKGRFTISRDNAKNSLYLQMNSLRAEDMALYYCARGVGATDYWGQGTLVTVSS
# VL: EIVLTQSPGTLSLSSGERATLACRASESVRGSFLAWYQQKPGQAPRLLIYGASRRATGIPDRFSGSGSGTDFTLTISRLEPEDFAVYYCQQYGNSPMCSFGQGTKLEIK
# Columns and labels:
# [1] = biological target: SARS-CoV-2 spike protein of the WA-1 strain live virus (carrying D614G) (SARS-CoV-2, UniProt P0DTC2 14-1273); assay: cell-based or functional assay
# [2] = biological target: SARS-CoV-2 spike protein receptor binding domain (RBD) (SARS-CoV-2, UniProt P0DTC2 319-541); assay: HT-SPR RBD epitope community assignment (Carterra)
# [3] = biological target: SARS-CoV-2 spike protein on authentic virus carrying D614G (WA-1 strain) (SARS-CoV-2, UniProt P0DTC2 14-1273); assay: cell-based or functional assay
# [4] = biological target: SARS-CoV-2 spike receptor binding domain (RBD), antigen of Example 10 (SARS-CoV-2, UniProt P0DTC2 319-541); assay: HT-SPR (Carterra) epitope binning on RBD
# [5] = biological target: mutant SARS-CoV-2 spike on pseudovirus (mutant not identified) (SARS-CoV-2); assay: cell-based or functional assay
# [6] = biological target: SARS-CoV-2 spike protein on live virus SARS-CoV-2 Victoria/01/2020 (SARS-CoV-2, UniProt P0DTC2 14-1273); assay: cell-based or functional assay
# [7] = biological target: SARS-CoV-2 spike receptor binding domain (Neil King, University of Washington) (SARS-CoV-2, UniProt P0DTC2 328-531); assay: SPR (Biacore 8K), IgG captured on anti-hFc chip, antigen as analyte, 25 C
binder,measurement,setting,value
B1,Live virus WA-1 strain IC50,[1],7.52 µg/mL
same,binding result,[2],no binding
B2,Live virus WA-1 strain IC50,[3],10.4 µg/mL
same,binding result,[4],no binding
B3,PV IC50 against mutant,[5],400 pM
B4,"IC50, live virus foci (plaque) reduction neutralisation assay on Vero cells",[6],49 ng/ml and 326 pM
B5,binding result,[7],no binding (tested: up to 100 nM)
